# Assay results taken from patent publication US8778876B2, “Small-molecule inhibitors of Dengue and West Nile virus proteases” (The Board of Regents of the University of Texas System, priority 2011, dated 2014).
# Conditions: Table 3; aqueous buffer
smiles,measurement,value
O=[N+]([O-])c1cc(Cl)cc([N+](=O)[O-])c1O,Solubility,S (compounds soluble in aqueous buffer were indicated with “S”)
